Measured values from several laboratories, pooled; numbers as filed in NIAID ChemDB.

All rows: tests in culture

MIC50, MIC90 and the like: level of inhibition, or share of isolates inhibited. Blank or dashed fields: not listed here. Lines come from different laboratories, so protocols vary.

compound,organism,strain or isolate,read by,setting,read-out,result
CCCCCn1cc(/C=N/NC(=S)NN)c2ccccc21,Mycobacterium bovis BCG,1173P2,broth dilution,48 h,MIC100,>500 µg/mL
CC(C)N1CCN(c2cc3c(cc2F)c(=O)c(C(=O)O)cn3C2CC2)CC1,Mycobacterium smegmatis,KD1163 (GRYA+),-,-,MIC99,0.16 µg/mL
O=C(Nc1ccccc1)c1ccccc1OP(=O)(Oc1ccccc1)Oc1ccccc1,Mycobacterium kansasii,My 235/80,-,7 d,MIC,250 µM
CC1CN(c2c(F)cc3c(=O)c(C(=O)O)cn(C4CC4)c3c2F)CC(C)N1,Mycobacterium smegmatis,KD1991 (GYRA D95Y),-,-,MIC99,0.91 µg/mL
CO[C@H]1/C=C/O[C@@]2(C)Oc3c(C)c(O)c4c(O)c(c(N5CCN(Cc6c(C)cc(C)cc6C)CC5)c(O)c4c3C2=O)NC(=O)/C(C)=C\C=C\[C@H](C)[C@H](O)[C@@H](C)[C@@H](O)[C@@H](C)[C@H](OC(C)=O)[C@@H]1C,Mycobacterium avium,3350-4,-,-,MBC,16 µg/mL
CC[C@H]1OC(=O)[C@H](C)[C@@H](O[C@H]2C[C@@](C)(OC)[C@@H](O)[C@H](C)O2)[C@H](C)[C@@H](O[C@@H]2O[C@H](C)C[C@H](N(C)C)[C@H]2O)[C@](C)(OC)C[C@@H](C)C(=O)[C@H](C)[C@@H](O)[C@]1(C)O,Mycobacterium abscessus,X88,broth dilution,-,MIC,2 µg/mL
CC1CN(c2cc3c(cc2F)c(=O)c(C(=O)O)cn3C2CC2)CC(C)N1,Mycobacterium smegmatis,KD1991 (GYRA D95Y),-,-,MIC99,2.3 µg/mL
O=C(Nc1ccccc1)c1ccccc1OP(=O)(OCc1ccccc1)OCc1ccccc1,Mycobacterium kansasii,My 6509/96,-,21 d,MIC,250 µM
CCCn1cc(/C=N/NC(=S)NN)c2ccccc21,Mycobacterium bovis BCG,1173P2,broth dilution,24 h,MIC100,>500 µg/mL
O=C1c2cc(Br)ccc2OP(=O)(c2ccccc2)N1c1ccc(C(F)(F)F)cc1,Mycobacterium kansasii,My 235/80,-,7 d,MIC,4 µM
COc1cc(Cc2cnc(N)nc2N)cc(OC)c1Br,Mycobacterium ulcerans,Isolate 5155,-,-,MIC,8 µg/mL
O=C(Nc1ccc(Br)cc1)c1cc(Cl)ccc1OP(=O)(OCc1ccccc1)OCc1ccccc1,Mycobacterium kansasii,My 235/80,-,14 d,MIC,32 µM
CC1CN(c2c(F)cc3c(=O)c(C(=O)O)cn(C4CC4)c3c2F)CCN1,Mycobacterium smegmatis,KD2008 (GYRA G89C),-,-,MIC99,1 µg/mL
O=C(Nc1ccccc1)c1ccccc1OP(=O)(Oc1ccccc1)c1ccccc1,Mycobacterium kansasii,My 6509/96,-,14 d,MIC,500 µM
CC[C@@H](CO)NCCN[C@@H](CC)CO,Mycobacterium avium complex,9141,-,-,MIC,3.8 µg/mL
COc1c(N2CC(C)NC(C)C2)c(F)cc2c(=O)c(C(=O)O)cn(C3CC3)c12,Mycobacterium smegmatis,KD1995 (GYRA D95H),-,-,MIC99,0.59 µg/mL
O=C(Nc1ccc(Br)cc1)c1cc(Cl)ccc1OP(=O)(Oc1ccccc1)c1ccccc1,Mycobacterium kansasii,My 235/80,-,14 d,MIC,8 µM
Nc1ccc(S(=O)(=O)c2ccc(N)cc2)cc1,Mycobacterium ulcerans,ATCC 19423,-,-,MIC,2 µg/mL
CCC1CN(c2cc3c(cc2F)c(=O)c(C(=O)O)cn3C2CC2)CCN1,Mycobacterium smegmatis,KD1998 (GYRA D95N),-,-,MIC99,3.6 µg/mL
O=C(Nc1ccc(C(F)(F)F)cc1)c1cc(Br)ccc1OP(=O)(c1ccccc1)c1ccccc1,Mycobacterium kansasii,My 6509/96,-,21 d,MIC,4 µM
NNC(=S)N/N=C/c1cn(Cc2ccc(Br)cc2)c2ccccc12,Mycobacterium bovis BCG,1173P2,broth dilution,24 h,MIC100,>500 µg/mL
O=C(Nc1ccc(Br)cc1)c1cc(Cl)ccc1OP(=O)(Oc1ccccc1)Oc1ccccc1,Mycobacterium kansasii,My 235/80,-,7 d,MIC,4 µM
CN(C)c1cc(NC(=O)CNC(C)(C)C)c(O)c2c1C[C@H]1C[C@H]3[C@H](N(C)C)C(=O)C(C(N)=O)=C(O)[C@@]3(O)C(=O)C1=C2O,Mycobacterium abscessus,X40,broth dilution,-,MIC,1 µg/mL
O=S(=O)(c1ccccc1)n1cc(/C=N/Nc2nncs2)c2ccccc21,Mycobacterium bovis BCG,1173P2,broth dilution,48 h,MIC100,250 µg/mL

For reference, 2 entries again:

compound	organism	strain or isolate	read by	setting	read-out	result
CO[C@H]1/C=C/O[C@@]2(C)Oc3c(C)c(O)c4c(O)c(c(N5CCN(Cc6c(C)cc(C)cc6C)CC5)c(O)c4c3C2=O)NC(=O)/C(C)=C\C=C\[C@H](C)[C@H](O)[C@@H](C)[C@@H](O)[C@@H](C)[C@H](OC(C)=O)[C@@H]1C	Mycobacterium avium	3350-4	-	-	MBC	16 µg/mL
CC1CN(c2c(F)cc3c(=O)c(C(=O)O)cn(C4CC4)c3c2F)CC(C)N1	Mycobacterium smegmatis	KD1991 (GYRA D95Y)	-	-	MIC99	0.91 µg/mL